This assay concerns B. burgdorferi N40. As to the kind of experiment: Bait experiment in infected mice. The note with it: bait once a day for 5 days, HygA 200 mg/kg or doxycycline 100 mg/kg; sacrificed 3 days after treatment. Format: in vivo, C3H mice. How it is done: Mice were infected with B. burgdorferi.
To prepare the mouse bait, 2 g of Bait formulation 3 (Food source), 0.5 g freshly ground peanut butter (Whole foods), 35 μl of green food coloring mix (Whole foods) were added into a 60 mm Petri dish. Boiling water (4 mL) was added and mixed with a spatula. The mixture was then dispensed into wells of a 96 well plate with a spatula such that about ⅔rd of the well was full. Antibiotics or vehicle were added at appropriate volume and mixed with a pipette tip. Added volume was kept below 60 μL per well. The bait was allowed to air dry/solidify for a few hours and the prepared baits were stored at 4° C. until use.
To ensure that the bait would be consumed, mice were housed individually with their mouse chow withheld during treatment. The doses used in mice were matched to the pharmacokinetic profile of humans given ceftriaxone 1 g every 12 hours (Sai Life Sciences Ltd, India) and doxycycline 100 mg every 12 hours.
Skin was used for liquid culture, and RNA extraction. All other tissues were used for RNA extraction. The growth of B. burgdorferi in 10 day liquid cultures was detected by dark field microscopy with a 100× objective.

The text below walks through data of US20240082282A1 (priority 2020, published 2024).

Regarding Hygromycin A, the “Infection status by culture and PCR after bait” value was “clear of infection by culture and PCR”.
